Our source for the Kd, koff and kon values is patent US20230233665A1.

The assay deals with ACE2-Fc (UniProt Q9BYF1).

Broadly, the Kd is the equilibrium constant for the complex coming apart. A low value points to tighter binding. Usually koff stands for the first-order rate constant of dissociation. A high value points to a short-lived complex. What is called kon is a measure of how fast the partners come together. Turning to “RBD protein of the present invention (SARS-CoV-2 S protein receptor-binding domain, amino acids 319-545) (from UniProt P0DTC2 319-545) (ligand; other documents disagree on this pair)”, the dissociation constant (Kd) was 15.2 nM, the off-rate (koff) is 0.0441 s⁻¹ and the kon turned out to be 3.85e+06 M⁻¹ s⁻¹.
